Article PMC6117287, “A fundamental catalytic difference between zinc and manganese dependent enzymes revealed in a bacterial isatin hydrolase” (Scientific Reports, 2018)

System: O=C1Nc2ccccc2C1=O
Test: purified protein
Conditions: Mn2+ dependent enzyme; one-site Michaelis-Menten fit

**Q.** For “RsIHA (Ralstonia pseudosolanacearum GMI1000)”, which Km is on record?
**A.** Its Km is 10 µM.
